This is an account of results in PMC9270327 (Communications Biology, 2022).

Where two headings read alike, the source gives them in different places.

In the assay the test system is SARS-CoV-2 Wuhan-Hu-1 D614G, Caco-2 cells. Particulars: for SARS-CoV-2 infection, Mean (0 nM = 100): Fig. 6b, D614G isolate; for IC50: read-out: IC50 SARS-CoV-2 Wuhan-Hu-1 D614G, Caco-2 cells.
[1] abbreviates: in-cell ELISA 2 days post infection.

As a reminder, the IC50 is the concentration needed to halve the response being measured.

Take `CC(=O)N[C@@H](CC(N)=O)C(=O)N1CCC[C@H]1C(=O)NC(CCCNC(=N)N)C(=O)c1nc2ccccc2s1` (stereo partly shown): the “SARS-CoV-2 infection, Mean (0 nM = 100)” value was found to be 88.8992 (compound 32 nM); 90.2993 (compound 160 nM); 89.0817 (compound 800 nM); 98.5858 (compound 4000 nM); 11.6994 (compound 20000 nM); 0.2339 (compound 100000 nM). Besides, the IC50 worked out at 11.9 µM (2 days post infection) and 11.9 µM under setting [1].
`CC(=O)N[C@@H](Cc1c[nH]cn1)C(=O)N1CCC[C@H]1C(=O)NC(CCCNC(=N)N)C(=O)c1nc2ccccc2s1` (stereo partly shown): the “SARS-CoV-2 infection, Mean (0 nM = 100)” value turned out to be 95.0117 (compound 32 nM); 95.6018 (compound 160 nM); 92.7997 (compound 800 nM); 99.0112 (compound 4000 nM); 29.611 (compound 20000 nM); 0.596 (compound 100000 nM). Further, the half-maximal inhibitory concentration (IC50) under setting [1] was 15.4 µM.
With `CC(=O)N[C@H](CCCNC(=N)N)C(=O)N[C@@H](CC1CCC1)C(=O)NC(CCCNC(=N)N)C(=O)c1nc2ccccc2s1` (stereo partly shown), the “SARS-CoV-2 infection, Mean (0 nM = 100)” value (compound 32 nM) is 91.0762; the “SARS-CoV-2 infection, Mean (0 nM = 100)” value (compound 160 nM) was 89.0772; the “SARS-CoV-2 infection, Mean (0 nM = 100)” value (compound 800 nM) was determined as 89.0473; the “SARS-CoV-2 infection, Mean (0 nM = 100)” value (compound 4000 nM) worked out at 86.8294; the “SARS-CoV-2 infection, Mean (0 nM = 100)” value (compound 20000 nM) stood at 98.4444; the “SARS-CoV-2 infection, Mean (0 nM = 100)” value (compound 100000 nM) worked out at 4.981. Further, the IC50 under setting [1] was 51.2 µM.
